Results taken from PMC12380353, “MK-8527 is a novel inhibitor of HIV-1 reverse transcriptase translocation with potential for extended-duration dosing” (PLOS Biology, 2025).
Certain results were filed several times, with different values. The list is limited to them. There may be further records. The values listed for one entry do not match, cause unknown; some may be repeats, others may stem from another dose, organism or construct than stated.

Assay: MK-8527-TP in PBMCs of rhesus monkeys after oral dosing
Conditions: oral MK-8527 50 mg/kg

SMILES: C#C[C@]1(COP(=O)(O)OP(=O)(O)OP(=O)(O)O)O[C@@H](n2ccc3c(N)nc(Cl)nc32)C[C@@H]1O [MK-8527-TP]
- Intracellular half-life in PBMCs: approximately 48 h and 48 h
